Measurements reported in publication PMC12692169, “Identification of Novel TAT-I24-Related Peptides with Antiviral Activities” (International Journal of Molecular Sciences, 2025).

Test system: plasmid-DNA (dsDNA)
Assay: Fluorescence-based dsDNA-binding assay (SYBR Gold, plasmid DNA)
Conditions: TAT-I24 as reference, three independent experiments in duplicates

GRKKRRQRRRPPQ [TAT, reference compound]
dsDNA-binding (reduction in SYBR Gold fluorescence): decrease in fluorescence intensity but to a lower extent compared to TAT-I24
